Compound potency records, mixed from different reports. Data source: NIAID ChemDB in PubChem.

Shared fields: enzyme or target tests; species: HIV-1; protein: Integrase

a–b is a range or a potency band. Blank or dashed fields: not listed here. Lines come from different laboratories, so protocols vary. ICn is the concentration giving n% inhibition.

structure | mutations | strain | method | measure | result
O=C(/C=C/c1ccc(O)c(O)c1)Oc1ccc2cccc(N=C=S)c2c1 |  |  | 3′ processing | IC50 | 1 µM
CC(=O)N1CCC2(CC1)OCCCn1c2nc(C(=O)NCc2ccc(F)cc2-n2ncnc2C)c(O)c1=O |  |  | binding / radiometric | Ki | 0.003–0.05 µM
O=C1c2c(O)c(=O)ccn2CCN1Cc1ccc(F)cc1 |  |  | ELISA | IC50 | 0.01–0.1 µM
COc1ccc2[nH]c3c(C)cc4c(c3c2c1)C(=O)N(CCN(C)C)C4=O |  |  | ELISA / strand transfer / luminescence | IC50 | 6.61 µM
COc1cccc2c1c(/C(O)=C/C(=O)C(=O)O)cn2Cc1ccc(F)cc1.COc1cccc2c1c(/C(O)=C/C(=O)C(=O)O)cn2Cc1ccc(F)cc1.[Mg+2].[Mg+2] |  | IIIB | strand transfer / AlphaScreen | IC50 | 0.08 µM
[N-]=[N+]=NC[C@H]1O[C@@H](n2cnc3c(N)ncnc32)[C@H](O)[C@@H]1CC(=O)O |  | NL4-3 | strand transfer | IC50 | >10 µM
O=C(NCc1ccccc1)c1c(O)c2ncccc2oc1=O |  |  | strand transfer | IC50 | 15.9 µM
CN(C)CCN1C(=O)c2cc(-c3ccccc3)c3[nH]c4ccc(O)cc4c3c2C1=O |  |  | ELISA / strand transfer / luminescence | IC50 | 50.64 µM
O=CCCc1ccc(C2=C(c3ccc(CCC=O)o3)C(=O)N(Cc3ccccc3)C2=O)o1 |  |  | strand transfer | IC50 | 5.5 µM
Cc1cc2c(cc1Cl)SC(C(=O)c1ccc(Cl)cc1)=NS2(=O)=O | INTG-C65S |  | 3′ processing | IC50 | 33 µM
COc1cccc(CN(C)C(=O)/C=C(\O)C(=O)O)c1 |  |  | strand transfer | IC50 | <70 µM
CCOC(=O)/C=C/c1ccc2c(c1)c(=O)c(/C(O)=C/C(=O)C(=O)OCC)cn2Cc1ccc(F)cc1 |  |  | strand transfer | IC50 | >300 µM
O=C(C1=NS(=O)(=O)c2ccc(Cl)cc2S1)c1ccc(Cl)c(Cl)c1 | INTG-C65S |  | 3′ processing | IC50 | 47 µM
CC(C)(C)NS(=O)(=O)c1ccccc1-c1cccc(C(=O)Nc2ccc(CCC(=O)O)cc2)c1 | T174I |  | strand transfer / fluorescence | IC50 | 0.251 µM
Cc1ccc(CNC(=O)c2nc3n(c(=O)c2O)CCN(C)CC3N(C)C(=O)C(=O)N(C)C)cc1Cl |  |  | ELISA | IC50 | <10 µM
O=C(C1=NS(=O)(=O)c2ccc(Cl)cc2S1)c1ccc2ccccc2c1 | INTG-C65S |  | 3′ processing | IC50 | 65 µM
O=C1c2c(O)c(=O)n(Cc3cscn3)c(=O)n2CCN1Cc1ccc(F)cc1 |  |  | strand transfer | IC50 | <10 µM
Cn1ccc(CN2CCn3c(nc(C(=O)NCc4ccc(F)cc4)c(O)c3=O)C23CC3)n1 |  |  | ELISA | IC50 | <10 µM
COc1ccc2[nH]c3c4[nH]c5ccccc5c4c4c(c3c2c1)C(=O)N(c1ccccc1)C4=O |  |  | ELISA / strand transfer / luminescence | IC50 | >100 µM
CCOC(=O)C(=O)N1CCC2(C1)OCCn1c2nc(C(=O)NCc2ccc(F)cc2)c(O)c1=O |  |  | binding / radiometric | Ki | 0.001–0.003 µM
COc1cccc2c1c(/C(O)=C\C(=O)C(=O)O)cn2Cc1cc(F)ccc1F |  | IIIB | 3′ processing / AlphaScreen | IC50 | 2 µM
Cc1cc2c(cc1Cl)SC(C(=O)c1ccc(Cl)c(Cl)c1)=NS2(=O)=O | INTG-C65S |  | strand transfer | IC50 | 10 µM
COc1cc(Cn2ccn3ccc(=O)c(O)c3c2=O)ccc1Cl |  |  | ELISA | IC50 | 0.01–0.1 µM
Cc1cc2c(c3c1[nH]c1cc(Cl)c(O)cc13)C(=O)N(CCN(C)C)C2=O |  |  | ELISA / strand transfer / luminescence | IC50 | 5 µM
CNC(=O)c1cn2ccn(Cc3ccc(F)cc3)c(=O)c2c(O)c1=O |  |  | ELISA | IC50 | <0.01 µM
O=c1oc2cccnc2c(O)c1C(=S)Nc1ccccc1 |  |  | strand transfer | IC50 | >300 µM
O=C1c2c(O)c(=O)c(-c3nccs3)cn2CCN1Cc1ccc2ccccc2c1 |  |  | ELISA | IC50 | <0.01 µM
C=CCOc1ccc(C[C@H](NC(=O)OCc2ccccc2)C(=O)N[C@@H](CCCCN)C(=O)NCCCC(=O)OC)cc1 |  |  | strand transfer | IC50 | 2.5 µM
O=C(NCc1ccc(F)cc1)c1nc2n(c(=O)c1O)CCN(Cc1cocn1)C21CC1 |  |  | ELISA | IC50 | <10 µM
O=C(/C=C/c1ccc(O)c(O)c1)Oc1cccc2c(N=C=S)cccc12 | C65S |  | 3′ processing | IC50 | 4 µM
Cc1ncnn1-c1cc(F)ccc1CNC(=O)c1nc2n(c(=O)c1O)CCOCC21CCN(C(=O)N(C)C)CC1 |  |  | binding / radiometric | Ki | 0.003–0.05 µM
Cc1cc(Cl)cc2c1S(=O)(=O)N=C(C(=O)c1ccc(Cl)cc1)S2 | INTG-C65S |  | strand transfer | IC50 | 65 µM
N#Cc1cn(Cc2cccc(Cl)c2)c(=O)c2c(O)c(=O)ccn12 |  |  | ELISA | IC50 | 0.01–0.1 µM
O=C1c2c(O)c(=O)n(CCc3cccs3)c(=O)n2CCN1Cc1ccc(F)cc1 |  |  | strand transfer | IC50 | <10 µM
O=C(O)/C(O)=C/c1ccnc(CCc2ccccc2)c1 |  |  | strand transfer | IC50 | >100 µg/mL
Cn1c(=O)c(C(=O)NCc2ccc(F)cc2)c(O)c2nc(Cc3ccc(F)cc3)sc21 |  |  | strand transfer | IC50 | >151 µM
C=CCOc1ccc(C[C@H](NC(C)=O)C(=O)N[C@@H](CCCCN=C(N)N)C(=O)N[C@H](CC=C)C(=O)OC)cc1 |  |  | strand transfer | IC50 | 5.2 µM
O=C(NCc1ccc(F)cc1)c1nc2n(c(=O)c1O)CCCOC21CCN(C(=O)OCc2ccccc2)CC1 |  |  | binding / radiometric | Ki | 0.001–0.003 µM
Cc1cc2c(cc1Cl)SC(C(=O)c1ccc3ccccc3c1)=NS2(=O)=O | INTG-C65S |  | strand transfer | IC50 | 15 µM
[N-]=[N+]=NCc1cccc(C(=O)CC(=O)C(=O)O)c1 |  |  | strand transfer | IC50 | 0.76 µM
CN(Cc1cccc(C(F)(F)F)c1)C(=O)/C=C(\O)C(=O)O |  |  | strand transfer | IC50 | <70 µM
CC(c1cccc2ccccc12)n1c(=O)c(O)c2n(c1=O)CCN(Cc1ccc(F)cc1)C2=O |  |  | strand transfer | IC50 | <10 µM
CNC(=O)NC[C@H]1O[C@@H](n2cnc3c(NC(=O)Nc4ccccc4)ncnc32)[C@H](O)[C@@H]1CC(=O)O |  | NL4-3 | strand transfer | IC50 | >10 µM
COc1ccccc1CNC(=O)/C=C(\O)C(=O)O |  |  | strand transfer | IC50 | ~70 µM
COc1cc(O)c2c(c1)C(=O)C(C)=C(c1c(OC)cc3cc4cc(C)oc(=O)c4c(O)c3c1O)C2=O |  |  | absorbance | IC50 | 5 µM
CC(C)c1cn2ccn(Cc3cccc(Cl)c3)c(=O)c2c(O)c1=O |  |  | ELISA | IC50 | 0.01–0.1 µM
CCOC(=O)C(Cc1ccccc1)c1ccc(N2C(=O)C(c3ccc(C(=O)O)o3)=C(c3ccc(C(=O)O)o3)C2=O)cc1 |  |  | 3′ processing | IC50 | 15 µM
Cc1ccc(CNC(=O)c2nc3n(c(=O)c2O)CCN(C2CC2)CC3N(C)C(=O)C(=O)N(C)C)cc1Cl |  |  | ELISA | IC50 | <10 µM
Cc1cc2c(cc1Cl)SC(C(=O)c1cccc([N+](=O)[O-])c1)=NS2(=O)=O | INTG-C65S |  | 3′ processing | IC50 | 95 µM
O=c1c(-c2ccccc2C(F)(F)F)cn2ccn(Cc3cccc(Cl)c3)c(=O)c2c1O |  |  | ELISA | IC50 | <0.01 µM
O=C1c2c(O)c(=O)n(C3Cc4ccccc4C3)c(=O)n2CCN1Cc1ccc(F)cc1 |  |  | strand transfer | IC50 | <10 µM
CC1(C)c2nc(C(=O)NCc3ccc(F)cc3)c(O)c(=O)n2CCN1Cc1cn[nH]c1 |  |  | ELISA | IC50 | <10 µM
Cc1ccc(CNC(=O)c2c(O)c3ncccc3oc2=O)cc1 |  |  | strand transfer | IC50 | 12.3 µM
CC1=C(C#N)c2nc(N)c(C#N)c(C)c2/C1=C/c1ccc(-c2ccc(O)c(C(=O)O)c2)o1 |  |  | strand transfer | IC50 | 4 µM
C/C=C(/CC[C@@H](C)[C@H]1CC[C@H]2[C@@H]3CC=C4C[C@@H](O)CC[C@]4(C)[C@H]3CC[C@]12C)C(C)C |  |  | 3′ processing | IC50 | >100 µM
CN(Cc1cccc(Oc2ccccc2)c1)C(=O)/C=C(\O)C(=O)O |  |  | strand transfer | IC50 | <70 µM
O=C(/C=C/c1ccc(O)c(O)c1)OCCc1ccccc1 |  |  | 3′ processing | IC50 | 5 µM
O=C(O)/C=C/c1cc(CCc2ccccc2)ncn1 |  |  | strand transfer | IC50 | >100 µg/mL
C=CCOc1ccc(C[C@H](NC(C)=O)C(=O)N[C@@H](CCCCN)C(=O)Nc2cccc(CC(=O)OC)c2)cc1 |  |  | strand transfer | IC50 | 9 µM
CS(=O)(=O)c1cn2ccn(Cc3cccc(Cl)c3)c(=O)c2c(O)c1=O |  |  | ELISA | IC50 | 0.01–0.1 µM
COc1ccc(/C=C/C(=O)OCCc2ccc(N=C=S)cc2)cc1OC | C65S |  | 3′ processing | IC50 | >100 µM
COc1cccc2c1c(/C(O)=C/C(=O)C(=O)O)cn2Cc1ccccc1F.COc1cccc2c1c(/C(O)=C/C(=O)C(=O)O)cn2Cc1ccccc1F.[Mg+2].[Mg+2] |  | IIIB | strand transfer / AlphaScreen | IC50 | 0.02 µM
O=c1oc2cccnc2c(O)c1C(=S)NCc1ccc(F)cc1 |  |  | strand transfer | IC50 | >300 µM
O=C(/C=C/c1ccc(O)c(O)c1)Oc1ccc2c(N=C=S)cccc2c1 | C56S |  | 3′ processing | IC50 | 20 µM
CN(C)CCN1C(=O)c2cc(-c3ccccc3)c3c(c2C1=O)c1ccccc1n3C |  |  | ELISA / strand transfer / luminescence | IC50 | 57 µM
Cc1cc(/C(O)=C/c2cc(CCc3ccccc3)ncn2)co1 |  |  | strand transfer | IC50 | 0.84 µg/mL
O=C(CCCCCNC(=O)CCCC[C@@H]1SC[C@@H]2NC(=O)N[C@@H]21)NCCCCCC(=O)NCc1cn(Cc2ccc(C(=O)c3cccc(/C(O)=C/C(=O)C(=O)O)c3)cc2)nn1 |  |  | 3′ processing | IC50 | >333 µM
CNC(=O)c1cccc(C(c2ccc(F)cc2)N(C)C(=O)/C=C(\O)C(=O)O)c1 |  |  | strand transfer | IC50 | <70 µM
COC(=O)N1CCC2(CC1)OCCCn1c2nc(C(=O)NCc2ccc(F)cc2-n2ncnc2C)c(O)c1=O |  |  | binding / radiometric | Ki | 0.003–0.05 µM
[N-]=[N+]=NC[C@H]1O[C@@H](n2cnc3c(NC(=O)Nc4ccccc4)ncnc32)[C@@H]2OC(=O)C[C@@H]21 |  | NL4-3 | 3′ processing | IC50 | >10 µM

Repeating the final 10 entries:

structure | mutations | strain | method | measure | result
COc1ccc(/C=C/C(=O)OCCc2ccc(N=C=S)cc2)cc1OC | C65S |  | 3′ processing | IC50 | >100 µM
COc1cccc2c1c(/C(O)=C/C(=O)C(=O)O)cn2Cc1ccccc1F.COc1cccc2c1c(/C(O)=C/C(=O)C(=O)O)cn2Cc1ccccc1F.[Mg+2].[Mg+2] |  | IIIB | strand transfer / AlphaScreen | IC50 | 0.02 µM
O=c1oc2cccnc2c(O)c1C(=S)NCc1ccc(F)cc1 |  |  | strand transfer | IC50 | >300 µM
O=C(/C=C/c1ccc(O)c(O)c1)Oc1ccc2c(N=C=S)cccc2c1 | C56S |  | 3′ processing | IC50 | 20 µM
CN(C)CCN1C(=O)c2cc(-c3ccccc3)c3c(c2C1=O)c1ccccc1n3C |  |  | ELISA / strand transfer / luminescence | IC50 | 57 µM
Cc1cc(/C(O)=C/c2cc(CCc3ccccc3)ncn2)co1 |  |  | strand transfer | IC50 | 0.84 µg/mL
O=C(CCCCCNC(=O)CCCC[C@@H]1SC[C@@H]2NC(=O)N[C@@H]21)NCCCCCC(=O)NCc1cn(Cc2ccc(C(=O)c3cccc(/C(O)=C/C(=O)C(=O)O)c3)cc2)nn1 |  |  | 3′ processing | IC50 | >333 µM
CNC(=O)c1cccc(C(c2ccc(F)cc2)N(C)C(=O)/C=C(\O)C(=O)O)c1 |  |  | strand transfer | IC50 | <70 µM
COC(=O)N1CCC2(CC1)OCCCn1c2nc(C(=O)NCc2ccc(F)cc2-n2ncnc2C)c(O)c1=O |  |  | binding / radiometric | Ki | 0.003–0.05 µM
[N-]=[N+]=NC[C@H]1O[C@@H](n2cnc3c(NC(=O)Nc4ccccc4)ncnc32)[C@@H]2OC(=O)C[C@@H]21 |  | NL4-3 | 3′ processing | IC50 | >10 µM